Measured values from several laboratories, pooled; numbers as filed in NIAID ChemDB.

All rows: toxicity to cultured cells; cell line: MT-4; read-out: CC50

CCn: concentration that lowers growth or viability of the cells by n%. An empty or dashed field is not shown. Conditions beyond the fields shown may differ between rows.

SMILES	method	value
CC(C)c1c(Sc2cccc3ccccc23)n(COCc2cccc(F)c2)c(=O)[nH]c1=O	MTT	32.82 µM
Cc1nn(-c2ccccc2)c2nnn(N)c12	-	200 µM
O=C(NC1CCN(C(=O)c2ccccc2)CC1)c1cc(O)c(O)c(O)c1	MTT	38.3 µM
Cc1nn(-c2ccccc2)c2c1nnn2C(=O)NC(C)(C)C	-	>200 µM
CC(C)(C)OC(=O)N1CCCN(C(=O)OC(C)(C)C)CCN(C(=O)OC(C)(C)C)CCCN(CCCCC(=O)OC[C@H]2O[C@@H](n3ccc(N)nc3=O)CS2)CC1	-	50 µM
CC(C)=CCc1c(O)cc2oc(-c3ccc(O)cc3)c(O)c(=O)c2c1O	-	13 µg/mL
c1ccc(-c2nnc3n2-c2ccccc2-n2c(-c4ccccc4)nnc2C3N2CCOCC2)cc1	MTT	32 µM
Cc1nn(-c2ccccc2)c2n[nH]nc12	-	>200 µM
O=C(NC1CCN(S(=O)(=O)c2ccccc2)CC1)c1cc(O)c(O)c(O)c1	MTT	127.8 µM
COc1ccc2nc3cc(Cl)ccc3c(Nc3ccco3)c2c1	MTT	7 µM
Cc1cn([C@H]2C[C@H](N=[N+]=[N-])[C@@H](COC(=O)CCCC(=O)N3CCCN(C(=O)OC(C)(C)C)CCN(C(=O)OC(C)(C)C)CCCN(C(=O)OC(C)(C)C)CC3)O2)c(=O)[nH]c1=O	-	50 µM
Cc1nnc2n1-c1ccccc1-n1c(C)nnc1C2C	MTT	>200 µM
Cc1nn(-c2ccccc2)c2c1nnn2Cc1ccccc1	-	114 µM
CCOCn1c(Sc2ccc3ccccc3c2)c(C(C)C)c(=O)[nH]c1=O	MTT	36.3 µM
Cc1nnc2n1-c1ccccc1-n1c(C)nnc1C2	MTT	>200 µM
O=C(NC1CCNCC1)c1cc(O)c(O)c(O)c1	MTT	42.1 µM
Cc1cc(C#N)cc(C)c1Oc1ccnc(NC2CCN(CC(=O)Nc3c(Cl)cc(Cl)cc3Cl)CC2)n1	MTT	1.5 µM
Cc1cn([C@H]2C=C[C@@H](COC(=O)CCCCN3CCCN(C(=O)OC(C)(C)C)CCN(C(=O)OC(C)(C)C)CCCN(C(=O)OC(C)(C)C)CC3)O2)c(=O)[nH]c1=O	-	50 µM
CCN(CC(=O)O)S(=O)(=O)c1cc(Cl)ccc1N	MTT	>200 µM
CCC(Cc1ccccc1)c1cc(O)c(C(c2cccc(NC(=O)Cc3ccncc3)c2)C2CC2)c(=O)o1	-	>30 µM
Cc1cc(C#N)cc(C)c1Oc1ccnc(NC2CCN(CC(=O)Nc3ccccc3F)CC2)n1	MTT	119 µM
COc1ccc2nc3cc(Cl)ccc3c(NCCO)c2c1	MTT	1.8 µM
CC1C(=O)Nc2ccc(Cl)cc2S(=O)(=O)N1Cc1c(F)cccc1F	MTT	>200 µM
CN1CCN(C2c3nnc(-c4ccccc4)n3-c3ccccc3-n3c(-c4ccccc4)nnc32)CC1	MTT	126 µM
O=C1c2cccn2S(=O)(=O)c2ccccc2N1C1CC1	-	>300 µM
c1cc(CN2CCNCCNCCNCC2)cc(CN2CCNCCNCCNCC2)c1	-	6.2 µM
O=C(/C=C/c1cn([C@H]2C=C[C@@H](CO)O2)c(=O)[nH]c1=O)NCCCCCCNC(=O)C(F)(F)F	-	>100 µM
CC(C)=CCN1C(=O)c2cccn2S(=O)(=O)c2ccc(Cl)cc21	-	>300 µM
C[C@]1(CO)O[C@@H](n2cnc3cncnc32)C[C@@H]1O	-	50 µM
CC(C)N1C(=O)c2cccn2S(=O)(=O)c2ccc(Cl)cc21	-	>300 µM
Nc1ccc(Cl)cc1S(=O)(=O)NCC(=O)O	MTT	>200 µM
CCCNC(=O)/N=C1\C(=[N+]=[N-])C(C)=NN1c1ccccc1	-	77 µM
NCCCCCCNC(=O)/C=C/c1cn([C@H]2C=C[C@@H](CO)O2)c(=O)[nH]c1=O	-	>100 µM
COc1ccc2nc3cc(Cl)ccc3c(NCCCN3CCOCC3)c2c1	MTT	1.9 µM
CC(C)CN1C(=O)c2cccn2S(=O)(=O)c2ccccc21	-	184 µM
CCCc1c(Sc2cccc3ccccc23)n(COCc2ccccc2)c(=O)[nH]c1=O	MTT	32.57 µM
Nc1ccn([C@H]2CC[C@@H](CO)O2)c(=O)n1	-	>100 µM
CCNC(=O)n1nnc2c(C)nn(-c3ccccc3)c21	-	81 µM
CCC(C)(C)c1c(O)cc(O)c2c(=O)c(O)c(-c3cc(O)c4c(c3CC=C(C)C)CCC(C)(C)O4)oc12	-	10 µg/mL
CCc1c(Sc2ccc3ccccc3c2)n(COCc2ccccc2)c(=O)[nH]c1=O	MTT	154.5 µM
Cc1cc(C#N)cc(C)c1Oc1ccnc(NC2CCN(CC(=O)Nc3ccc(S(N)(=O)=O)cc3)CC2)n1	MTT	1.606 µM
O=S1(=O)c2ccccc2N=Cc2cccn21	-	46 µM
COc1ccc2nc3cc(Cl)ccc3c(N[C@H]3CCCN4CCCC[C@H]34)c2c1	MTT	6.4 µM
Cc1cn([C@H]2C[C@H](N=[N+]=[N-])[C@@H](COC(=O)CCCCN3CCCN(C(=O)OC(C)(C)C)CCN(C(=O)OC(C)(C)C)CCCN(C(=O)OC(C)(C)C)CC3)O2)c(=O)[nH]c1=O	-	50 µM
CCOCn1c(Sc2cccc3ccccc23)c(CC)c(=O)[nH]c1=O	MTT	38.4 µM
CN1C(=O)c2cccn2S(=O)(=O)c2ccccc21	-	300 µM
CC(C)=CCc1c(O)cc2c(c1O)C(=O)C[C@@H](c1ccc(O)cc1)O2	-	32 µg/mL
Cc1cc(S(N)(=O)=O)ccc1NC(=O)CN1CCC(Nc2nccc(Oc3c(C)cc(C#N)cc3C)n2)CC1	MTT	1.637 µM
O=C(NC1CCN(S(=O)(=O)c2ccc(F)cc2)CC1)c1cc(O)c(O)c(O)c1	MTT	178.4 µM
ClC1c2nnc(-c3ccccc3)n2-c2ccccc2-n2c(-c3ccccc3)nnc21	MTT	3 µM
CC(C)c1c(Sc2cccc3ccccc23)n(COCCc2ccccc2)c(=O)[nH]c1=O	MTT	31.4 µM
CN1c2ccccc2N2C(=O)CN(CCN3CCOCC3)C(=O)C2c2cccn21	-	>300 µM
COc1cccc(-c2nnc3n2-c2ccccc2-n2c(-c4cccc(OC)c4)nnc2C3C)c1	MTT	>200 µM
CCC(Cc1ccccc1)c1cc(O)c(C(c2cccc(NC(=O)[C@H](Cc3cn(S(=O)(=O)c4ccc(C)cc4)cn3)NC(=O)OC(C)(C)C)c2)C2CC2)c(=O)o1	-	>>30 µM
CC(C)(O)CCc1c(-c2ccc(O)cc2O)oc2c3c(cc(O)c2c1=O)OC(C)(C)C=C3	-	>100 µg/mL
CC(C)=CCN1C(C)C(=S)Nc2ccc(Cl)cc2S1(=O)=O	MTT	>200 µM
CCCNC(=O)n1nnc2c(C)nn(-c3ccccc3)c21	-	74 µM
Cc1cc(C)cc(S(=O)(=O)N2CCC(NC(=O)c3cc(O)c(O)c(O)c3)CC2)c1	MTT	74 µM
CC1c2nnc(Cc3ccccc3)n2-c2ccccc2-n2c(Cc3ccccc3)nnc21	MTT	>200 µM
Cc1cc(C#N)cc(C)c1Oc1ccnc(NC2CCN(CC(=O)Nc3ccc(Br)cc3)CC2)n1	MTT	>1.475 µM
O=c1[nH]cnc2c1ncn2[C@H]1CC[C@@H](CO)O1	MTT	529 µM
O=C(CN1C(=O)c2cccn2S(=O)(=O)c2ccccc21)OCc1ccccc1	-	>300 µM
CCc1c(Sc2cccc3ccccc23)n(COCc2cccc(C)c2)c(=O)[nH]c1=O	MTT	28.73 µM
CCN1CC(=O)Nc2c([N+](=O)[O-])cc(Cl)cc2S1(=O)=O	MTT	>200 µM

5 of the rows above, restated:

SMILES | method | value
COc1ccc2nc3cc(Cl)ccc3c(N[C@H]3CCCN4CCCC[C@H]34)c2c1 | MTT | 6.4 µM
Nc1ccc(Cl)cc1S(=O)(=O)NCC(=O)O | MTT | >200 µM
O=C(/C=C/c1cn([C@H]2C=C[C@@H](CO)O2)c(=O)[nH]c1=O)NCCCCCCNC(=O)C(F)(F)F | - | >100 µM
O=C(NC1CCN(S(=O)(=O)c2ccc(F)cc2)CC1)c1cc(O)c(O)c(O)c1 | MTT | 178.4 µM
c1ccc(-c2nnc3n2-c2ccccc2-n2c(-c4ccccc4)nnc2C3N2CCOCC2)cc1 | MTT | 32 µM